From article PMC9270183 (The Journal of Experimental Medicine, 2022)

Molecular target: SARS-CoV-2 Wuhan-Hu-1 RBD (SARS-CoV-2 Wuhan-Hu-1)
Experiment: BLI
Settings: both partners purified

B1: V008 (antibody, V domains shown)
VH: QVQLVQSGAEVKKPGASVKVSCKASGYTFTGYYMHWVRQAPGQGLEWMGWINPNSGGTNYAQKFQGRVTMTRDTSISTAYMELSRLRSDDTAVYYCASGSYYYDSSGYYYNDAFDIWGQGTMVTVSS
VL: [about 100 residues cut from this listing]
notes: IgG; donor BRA13; source: recombinant monoclonal IgG, produced and purified as previously described
- Kd: 3.54 nM
